Pooled drug test results. Numbers come from NIAID ChemDB, via PubChem.

Shared fields: whole-cell or culture tests; organism: Hepatitis C virus

Lines come from different laboratories, so protocols vary.

smiles	read by	cells	measure	mutations	strain	value
C#CCOC(=O)N[C@H](C(=O)N1C[C@H](Oc2cc(-c3ccccc3)nc3cc(OC)ccc23)C[C@H]1C(=O)N[C@]1(C(=O)NS(=O)(=O)C2CC2)C[C@H]1C=C)C(C)(C)C	replicon	Huh7	EC50		1b	<0.05 µM
CC(C)CN(CC(=O)NC(C)(C)CC(C)(C)C)C(=O)CCN1C(=O)[C@H](C)C2CC[C@H](C)C3CCC4(C)OO[C@]32C1O4	replicon	Huh 5-2	EC50			5 µM
CCCC(NC(=O)[C@@H]1C2CCC(F)(F)C2CN1C(=O)[C@@H](NC(=O)[C@@H](NC(=O)c1cnccn1)C(C)C)C(C)C)C(=O)C(=O)NC1CC1	replicon	Huh7	EC50			<25 µM
C[C@@]1(F)[C@H](O)[C@@H](CO)O[C@H]1n1cnc2c(N)ncnc21		Huh7	EC90			>100 µM
C[C@H]1CCC2[C@@H](C)C(=O)N(CCC(=O)N(CCc3ccccc3)CC(=O)NCc3ccccc3)C3O[C@]4(C)CCC1[C@@]23OO4	replicon	Huh 5-2	EC50			7 µM
CC(C)[C@H](NC(=O)c1cnccn1)C(=O)N[C@H](C(=O)N1CC2CCCC2[C@H]1C(=O)NC(CC(F)F)C(=O)C(=O)NC1CC1)C(C)C	replicon	Huh7	EC50			3.78 µM
C=CC1CC1(NC(=O)C1CC(Oc2cc(-c3ccccc3)nc3cc(OC)ccc23)CN1C(=O)[C@@H](NC(=O)OC(C)(C)C)C(C)C)C(=O)NS(=O)(=O)Cc1ccccc1	replicon	Huh7	EC50			0.28 µM
CCOC(=O)CCc1ccccc1OP(=O)(OC[C@H]1O[C@@H](n2cnc3c(N)nc(N)nc32)[C@](C)(O)[C@@H]1O)Oc1ccccc1CCC(=O)OCC	PCR	Huh7	EC90			>10 µM
O=C(/C=C/c1ccc(O)cc1)c1ccc(O)cc1O	microscopy / fluorescence	Huh7.5	EC50		2a	3.7 µg/mL
CN1CCN(CCCN2c3ccccc3Sc3ccc(Cl)cc32)CC1	luminescence	n4mBid	EC50			4.2 µM
CN(C)c1ncnc2c1c(C(=N)N)cn2[C@@H]1O[C@H](CO)[C@@H](O)[C@H]1O	replicon		EC50			2.5 µM
CC(C)(C)OC(=O)N[C@@H]1CCCCC/C=C\[C@@H]2C[C@@]2(C(=O)NS(=O)(=O)C2CC2)NC(=O)[C@@H]2C[C@@H](OC(=O)N3Cc4cccc(F)c4C3)CN2C1=O	antigen	Huh7.5	EC50		HK6a	0.025 µM
COC(=O)NC[C@H](C(=O)N1CCCC1c1ncc(-c2ccc(-c3ccc(-c4cnc(C5CCCN5C(=O)[C@@H](NC(=O)OC)C(C)C)[nH]4)cc3)cc2)[nH]1)C(C)C	luciferase	Huh7	EC50		Con1	0.055 µM
CCC(NC(=O)C1CCC1C(=O)[C@@H](NC(=O)[C@@H](NC(=O)c1cnccn1)C1CCCCC1)C(C)(C)C)C(=O)C(=O)NC1CC1	PCR	Huh7	EC90			>10 µM
CC[C@H](NC(=O)c1c(C)c(-c2ccccc2)nc2ccccc12)c1ccccc1	luminescence	n4mBid	EC50			6.6 µM
C=C[C@@H]1C[C@]1(NC(=O)[C@@H]1C[C@@H](Oc2nccc3ccc(Br)cc23)CN1C(C)=O)C(=O)NS(=O)(=O)C1CC1	luciferase		EC50		1b R155K	>3 µM
CCCCCCCCCCCCNc1nc(=O)c2ncn([C@@H]3O[C@H](CO)[C@@H](O)[C@H]3O)c2c(=O)[nH]1	cytopathic effect	HepG2.2.15	EC50			>500 µM
C=C[C@@H]1C[C@]1(NC(=O)[C@@H]1C[C@@H](Oc2cc(-c3ccccc3)nc3cc(OC)ccc23)CN1C(=O)[C@@H](Nc1ccccc1[N+](=O)[O-])C(C)(C)C)C(=O)NS(=O)(=O)C1CC1	replicon	Huh7	EC50		1b	<5 µM
C[C@@]1(O)[C@H](O)[C@@H](CO)O[C@H]1n1cnc2c(N)ncnc21	luciferase	Huh7	EC50		3a	0.2993 µM
Nc1nc(=O)c2ncn([C@@H]3C[C@H](O)[C@@H](CO)O3)c2c(=O)[nH]1	cytopathic effect	HepG2.2.15	EC50			10 µM
CCC[C@H](NC(=O)C1CC(Oc2cc(-c3ccccc3)nc3cc(OC)ccc23)CN1C(=O)[C@@H](NC(=O)OC(C)(C)C)C(C)C)C(=O)NS(=O)(=O)CCc1ccccc1	replicon	Huh7	EC50			>10 µM
COc1ccc(C(=O)Nc2cccc(Cn3nc(C(N)=O)c4ccccc43)c2)cc1	luciferase / replicon	Huh7.5.1	EC50		JFH-1	0.056 µM
O=C1C[C@@H](c2ccc(O)cc2)Oc2cc(O)ccc21	microscopy / fluorescence	Huh7.5	EC50		2a	16.4 µg/mL
CCC[C@H](NC(=O)[C@@H]1C2CCCC2CN1C(=O)[C@@H](NC(=O)[C@@H](NC(=O)c1cnccn1)C1CCCCC1)C(C)(C)C)C(=O)C(=O)N[C@@H](C)Cc1ccccc1	replicon	Huh7	EC50			0.11 µM
CC(C)OC(=O)[C@H](C)N[P@](=O)(OC[C@H]1O[C@@](C#N)(c2ccc3c(N)ncnn23)[C@](C)(O)[C@@H]1OC(=O)C(C)C)Oc1ccccc1	luciferase	Huh7 replicon	EC50		2a JFH-1	0.68 µM
CC(C)(C)NC(=O)N[C@H](C(=O)N1C[C@H]2[C@@H]([C@H]1C(=O)NC(CC1CCC1)C(=O)C(N)=O)C2(C)C)C(C)(C)C	PCR	Huh7	EC50	R1135K S1560G K1691R T1993A G2042C L2155P P2166L	1b H77	0.52 µM
C[C@H]1CCC2[C@@H](C)C(=O)N(CCC(=O)N(CC(=O)NCc3ccccc3)Cc3ccccc3)C3O[C@]4(C)CCC1[C@@]23OO4	replicon	Huh 5-2	EC50			3 µM
COc1ccc([C@H]2Oc3ccc([C@H]4Oc5cc(O)cc(O)c5C(=O)[C@@H]4O)cc3O[C@@H]2CO)cc1O			EC50		1b	14.6 µM
C=C[C@@H]1C[C@]1(NC(=O)[C@@H]1C[C@@H](c2csc(-c3ccccc3OCC)n2)CN1C(=O)C(NC(=O)OC1CCCC1)C(C)(C)C)C(=O)NS(=O)(=O)C1CC1	replicon	Huh7 cells	EC50			0.43 µM
Nc1nc(=O)c2ncn(CCOCP(=O)(O)O)c2c(=O)[nH]1	cytopathic effect	HepG2.2.15	EC50			100 µM
CCC[C@H](NC(=O)[C@@H]1C2CCCC2CN1C(=O)[C@@H](NC(=O)[C@@H](NC(=O)c1cnccn1)C(C)(C)C)C(C)(C)C)C(=O)C(=O)NC1CC1	replicon	Huh7	EC50			1 µM
C[C@H]1C(OCc2ccc(CO)cc2)OC2OC3(C)CCC4[C@H](C)CCC1[C@@]24OO3	PCR	Huh7.5.1	EC50		JFH-1/CS-N6	26 µM
C[C@@]1(O)[C@H](O)[C@@H](CO)O[C@H]1c1ccc2c(N)ncnn12	PCR	Huh7.5	EC50		GT6a	1 µM
COc1ccc(NC(=O)c2ccc(-c3ccc(-c4noc(C)n4)cc3C)cc2)cc1N1CCN(C)CC1	luminescence	n4mBid	EC50			1.6 µM
CNc1ncnc2c1c(C#N)cn2[C@@H]1O[C@H](CO)[C@@H](O)[C@H]1O	replicon		EC50			11 µM
COc1ccc2c(O[C@@H]3C[C@H]4C(=O)N[C@]5(C(=O)NS(=O)(=O)C6CC6)C[C@H]5/C=C\CCCCN(C)C(=O)[C@@H]4C3)cc(-c3nc(C(C)C)cs3)nc2c1C	antigen	Huh7.5	EC50		SA13	0.106 µM
C=C[C@@H]1C[C@]1(NC(=O)[C@@H]1C[C@@H](Oc2cc(-c3ccccc3)nc3cc(OC)ccc23)CN1C(=O)[C@@H](NC(=O)OC(C)(C)C)C(C)(C)C)C(=O)NS(=O)(=O)c1ccccc1C(=O)OC	replicon	Huh7	EC50		1b	<0.5 µM
N#Cc1cn([C@@H]2O[C@H](CO)[C@@H](O)[C@H]2O)c2ncnc(NCc3ccccc3)c12	replicon		EC50			5 µM
C[C@@]1(O)[C@H](O)[C@@H](CO)O[C@H]1n1cnc2c(N)ncnc21	luciferase / replicon	Huh7	EC50		GT1b	0.2 µM
COc1c(C)c2c(c(O)c1CC(=O)O)C(=O)OC2	GFP / fluorescence	Huh7.5.1	EC50		J399EM	0.52 µM
C[C@@]1(O)[C@H](O)[C@@H](CO)O[C@H]1n1cnc2c(N)ncnc21	luciferase	Huh7 replicon	EC50		5a	0.18 µM
N#Cc1cn([C@@H]2O[C@H](CO)[C@@H](O)[C@H]2O)c2ncnc(NCc3ccccn3)c12	replicon		EC50			5 µM
COCCN(CC(=O)NC1CCCCC1)C(=O)CCN1C(=O)[C@H](C)C2CC[C@H](C)C3CC[C@]4(C)OO[C@]32C1O4	replicon	Huh 5-2	EC50			2 µM
Cc1c(N)nc([C@H](CC(N)=O)NC[C@H](N)C(N)=O)nc1C(=O)N[C@H](C(=O)N[C@H](C)[C@@H](O)[C@H](C)C(=O)N[C@H](C(=O)NCCc1nc(-c2nc(C(=O)NCCC[S+](C)C)cs2)cs1)[C@@H](C)O)C(O[C@@H]1O[C@@H](CO)[C@@H](O)[C@H](O)[C@@H]1O[C@H]1O[C@H](CO)[C@@H](O)[C@H](OC(N)=O)[C@@H]1O)c1cnc[nH]1	luciferase	Huh7	EC50			1.5 µM
CCN(CC(=O)NC1CCCCC1)C(=O)CCN1C(=O)[C@H](C)C2CC[C@H](C)C3CCC4(C)OO[C@]32C1O4	replicon	Huh 5-2	EC50			8 µM
CC1(C)[C@@H](O[C@H]2O[C@H](C(=O)O)[C@@H](O)[C@H](O)[C@H]2O[C@@H]2O[C@H](C(=O)O)[C@@H](O)[C@H](O)[C@H]2O)CC[C@]2(C)[C@H]3C(=O)C=C4[C@@H]5C[C@](C)(C(=O)O)CC[C@]5(C)CC[C@@]4(C)[C@]3(C)CC[C@@H]12	microscopy / fluorescence	Huh7.5	EC50		2a	>30 µg/mL
CCCC(NC(=O)[C@@H]1[C@@H]2CCC[C@@H]2CN1C(=O)[C@@H](NC(=O)OC(C)C)C(C)C)C(=O)C(=O)N[C@@H](C)c1ccccc1	replicon	Huh7	EC50			>50 µM
CC1CCC(C(=O)N(c2cc(C#CC(C)(C)C)sc2C(=O)O)C2CCC(O)CC2)CC1	luciferase / replicon	Huh7	EC50		GT1b	0.0059 µM
N/C(=N\O)c1cn([C@@H]2O[C@H](CO)[C@@H](O)[C@H]2O)c2nc[nH]c(=O)c12	replicon		EC50			33 µM
COc1cc([C@@H]2Oc3cc([C@H]4Oc5cc(O)cc(O)c5C(=O)[C@@H]4O)ccc3O[C@H]2CO)ccc1O			EC50		1b	24.5 µM
C[C@H]1CCC2[C@@H](C)C(=O)N(CCC(=O)N(CC(=O)NC(C)(C)CC(C)(C)C)C3CCCC3)C3OC4(C)CCC1[C@@]23OO4	replicon	Huh 5-2	EC50			4 µM
CCC[C@H](NC(=O)C1CC(Oc2cc(-c3ccccc3)nc3cc(OC)ccc23)CN1C(=O)[C@@H](NC(=O)OC(C)(C)C)C(C)C)C(=O)NCc1ccccc1	replicon	Huh7	EC50			>10 µM
CCC[C@H](NC(=O)[C@@H]1[C@H]2CCC[C@H]2CN1C(=O)[C@@H](NC(=O)[C@@H](NC(=O)c1cnccn1)C1CCCCC1)C(C)(C)C)C(=O)C(=O)NC1CC1	luciferase / replicon	Huh7.5.1	EC50		JFH-1	0.67 µM
CC(C)C[C@H]1C(=O)N2CCC[C@H]2[C@]2(O)O[C@](NC(=O)[C@@H]3C=C4c5cccc6[nH]c(Br)c(c56)C[C@H]4N(C)C3)(C(C)C)C(=O)N12	luminescence	n4mBid	EC50			2 µM
CN(C)c1ncnc2c1ncn2[C@@H]1O[C@H](CO)[C@@H](O)[C@H]1O	replicon		EC50			7 µM
CC(=O)Nc1ccc(-c2ccc(Cl)cc2)c(COc2ccc(-c3nc4cc(C(=O)O)ccc4n3C3CCCCC3)cc2)c1	luciferase	Huh7	EC50		2a	7.408 µM
CCC[C@H](NC(=O)[C@@H]1[C@H]2CCC[C@H]2CN1C(=O)[C@@H](NC(=O)[C@@H](NC(=O)c1cnccn1)C1CCCCC1)C(C)(C)C)C(=O)C(=O)NC1CC1	luminescence	n4mBid	EC50			0.2 µM
O=C(O)c1ccc2c(c1)nc(-c1ccc(OCc3cc(N4CCCC4=O)ccc3-c3ccc(Cl)cc3)cc1F)n2C1CCCCC1	luciferase / replicon	Huh7	EC50		GT2a	10.62 µM

An empty or dashed field is not shown. ECn is the concentration giving n% inhibition of infection, replication or growth.